HIV-1 5' UTR: DMS reactivities by position

RNA: 5' end of the HIV-1 NL4-3 genome, made in vitro. Positions 1-437 read:
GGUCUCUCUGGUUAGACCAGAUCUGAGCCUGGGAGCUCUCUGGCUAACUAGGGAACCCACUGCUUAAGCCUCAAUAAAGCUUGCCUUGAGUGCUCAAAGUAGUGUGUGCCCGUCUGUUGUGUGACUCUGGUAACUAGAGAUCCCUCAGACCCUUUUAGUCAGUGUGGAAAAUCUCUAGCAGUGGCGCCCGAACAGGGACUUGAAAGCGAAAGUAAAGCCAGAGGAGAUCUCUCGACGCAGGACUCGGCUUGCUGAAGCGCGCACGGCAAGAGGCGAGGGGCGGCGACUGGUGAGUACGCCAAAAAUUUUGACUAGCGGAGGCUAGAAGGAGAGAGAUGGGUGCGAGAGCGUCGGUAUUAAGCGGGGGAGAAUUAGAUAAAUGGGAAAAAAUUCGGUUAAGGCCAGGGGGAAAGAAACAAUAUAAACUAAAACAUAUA

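Randomly mutated transcripts starting with one, two or three G (1G, 2G, 3G), capped or uncapped, were folded for 30 min at 37 °C. High salt was 300 mM KCl and 5 mM MgCl2, low salt 40 mM KCl and 0.1 mM MgCl2; monomer and dimer were parted on a native gel. Each band was probed in the gel with DMS (170 mM, 15 min, 37 °C), with ethanol as control, and sequenced.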

Values are winsor-normalised DMS reactivities of A and C; higher means more reactive, usually unpaired.
One numbering serves 1G, 2G and 3G.
A position is written with its base.

position	domain	3G capped high-salt dimer	3G capped high-salt monomer	3G capped low-salt dimer	3G capped low-salt monomer
C179	PBS	0.95	0.96	0.96	0.99
A180	PBS	0.67	0.64	0.65	0.63
C185	PBS	0.51	0.52	0.53	0.50
C187	PBS	0.03	0.02	0.03	0.02
C188	PBS	0.05	0.06	0.05	0.05
C189	PBS	0.07	0.08	0.07	0.07
A191	PBS	0.38	0.41	0.38	0.38
A192	PBS	0.79	0.87	0.82	0.86
C193	PBS	0.90	0.95	0.91	0.91
A194	PBS	0.97	1.14	1.01	1.13
A198	PBS	0.52	0.58	0.51	0.53
C199	PBS	0.44	0.46	0.44	0.43
A203	PBS	0.47	0.52	0.47	0.49
A204	PBS	0.69	0.70	0.66	0.65
A205	PBS	0.35	0.31	0.29	0.27
C207	PBS	0.48	0.44	0.46	0.44
A209	PBS	0.38	0.46	0.38	0.42
A210	PBS	0.44	0.56	0.43	0.46
A211	PBS	0.48	0.42	0.45	0.41
A214	PBS	0.27	0.26	0.27	0.25
A215	PBS	0.61	0.52	0.60	0.49
A216	PBS	0.76	0.61	0.71	0.61
C218	antiPAS	0.05	0.02	0.04	0.02
C219	antiPAS	0.05	0.03	0.04	0.02
A220	antiPAS	0.20	0.33	0.18	0.24
A222	antiPAS	0.25	0.24	0.21	0.21
A225	none	0.82	0.81	0.79	0.74
A227	CU	0.24	0.33	0.25	0.31
C229	CU	0.17	0.33	0.16	0.35
C231	CU	0.14	0.21	0.14	0.22
C233	CU	0.18	0.34	0.18	0.37
A235	none	0.69	0.64	0.68	0.53
C236	none	0.42	0.54	0.45	0.47
C238	none	0.46	0.80	0.48	0.85
A239	none	0.70	0.58	0.68	0.55
A242	none	1.12	0.87	1.00	0.69
C243	SL1	0.03	0.06	0.03	0.05
C245	SL1	0.07	0.31	0.08	0.37
C248	SL1	0.03	0.05	0.03	0.06
C252	SL1	0.05	0.26	0.06	0.32
A255	SL1	0.45	0.48	0.41	0.39
A256	SL1	1.01	0.82	0.93	0.64

A selection of 4 entries from above:

position,domain,3G capped high-salt dimer,3G capped high-salt monomer,3G capped low-salt dimer,3G capped low-salt monomer
C199,PBS,0.44,0.46,0.44,0.43
A239,none,0.70,0.58,0.68,0.55
A214,PBS,0.27,0.26,0.27,0.25
A204,PBS,0.69,0.70,0.66,0.65

The measurements come from Ye et al. 2022 (doi:10.1038/s41594-022-00746-2).